{"source": "patent US20130344008A1", "about": "“NONCARIOUS MATERIAL AND ANTICARIOUS AGENT CONTAINING RARE SUGAR” (priority 2006, published 2013)", "origin": "cited, not measured here", "data": [{"conditions": "cited from earlier work", "values": [{"smiles": "O=C(CO)[C@H](O)[C@H](O)[C@H](O)CO", "note": "[D-psicose]", "sweetness level relative to the sweetness level of sucrose": "about 70%"}, {"smiles": "OC[C@@H](O)C(O)[C@H](O)CO", "note": "[D-arabitol]", "sweetness level relative to the sweetness level of sucrose": "about 68%"}, {"smiles": "O=C[C@H](O)[C@H](O)[C@H](O)[C@H](O)CO", "note": "[D-allose]", "sweetness level relative to the sweetness level of sucrose": "about 65%"}]}]}
